Anti-infective test results gathered from many reports (values: NIAID ChemDB through PubChem).

Shared fields: tests in culture; organism: Candida albicans; endpoint: zone

Lines come from different laboratories, so protocols vary.

SMILES | strain or isolate | method | tested at | value
NC(=S)N/N=C/c1ccccc1O |  | agar diffusion / agar | 2 mg/mL | 12 mm
Cc1ccc(NC(=O)c2ccc(CN3CCN(C)CC3)cc2)cc1Nc1nccc(-c2cccnc2)n1 |  | agar diffusion | 100 µM | 21 mm
O=C1C(Cl)C(c2ccccc2F)N1Nc1nc2ccccc2n2nnnc12 | ATCC 2091 | agar diffusion | 50 µg/mL | 8 mm
Clc1nccc2nc(-c3ccccn3)c(-c3ccccn3)nc12 |  |  | 500 mg/mL | 37 mm
CCN(CC)c1ccc(N)c2nc[nH]c(=O)c12 | ATCC 10231 | agar diffusion | 1000 µg/mL | 0 mm
COc1ccc(-c2cc(C3OC(C45CC6CC(CC(C6)C4)C5)=NN3C(C)=O)no2)cc1 | IFO 0583 | agar diffusion / agar | 200 µg | ≤10 mm
CC1(C)CC(N2C(=N)C(=S)N(c3ccc(Cl)cc3)C2=O)CC(C)(CN2C(=N)C(=S)N(c3ccc(Cl)cc3)C2=O)C1 |  | agar diffusion / agar | 100000 µM | 22 mm
O=C1N/C(=N/N=C/c2csc(-c3ccccc3)n2)S/C1=C/c1ccc(Br)cc1 | ATCC 10231 | agar diffusion | 200 µg | 0 mm
C/C=C/C1=CC2=CC(=O)[C@](C)(OC(=O)c3c(C)cc(O)c(O)c3OC)C(=O)C2=CO1 | ATCC 64548 | agar diffusion | 1 µg/disc | 0 mm
Nc1ccc(Nc2ccccc2)c2c(=O)[nH]cnc12 | ATCC 10231 | agar diffusion | 1000 µg/mL | 0 mm
Cc1ccc(N2NOC(=O)C2S(=O)(=O)Nc2nc3ccc([N+](=O)[O-])cc3s2)cc1 | MTCC 227 | agar diffusion | 250 µg/mL | 25 mm
Cc1ccc(Nc2ccc(N)c3nc[nH]c(=O)c23)cc1C | ATCC 10231 | agar diffusion | 1000 µg/mL | 0 mm
Nc1nc2nc(-c3ccccn3)c(-c3ccccn3)nc2c(=O)[nH]1 |  |  | 250 mg/mL | 35 mm
CC[C@@H](O)C[C@H](C)C1O[C@]1(C)/C=C/C(=O)N[C@H](CO)[C@@H](C)CC |  | agar diffusion | 16000 µg/mL | 12.1 mm
CCOc1ccc(N2C(=O)N(c3ccc(-c4ccc(N5C(=N)C(=S)N(c6ccc(OCC)cc6)C5=O)cc4OC)c(OC)c3)C(=N)C2=S)cc1 |  | agar diffusion / agar | 100000 µM | 17 mm
Cc1cc(C)cc(Nc2ccc(N)c3nc[nH]c(=O)c23)c1 | ATCC 10231 | agar diffusion | 1000 µg/mL | 0 mm
C\C1=C/C=C/C=C/C=C/C=C/CC2CC(O)CC(O)(CC(O)CC(O)CC(O)CC(O)CC(O)CC(O)CC(O)/C=C/C(C)C(C(C)C)OC1=O)O2 |  | agar diffusion | 100 µg/disc | 15 mm
Cn1c(=S)[nH]c2nc(-c3ccccn3)c(-c3ccccn3)nc2c1=O |  |  | 500 mg/mL | 0 mm
Cc1ccc(/C=C/C(=NCCCn2ccnc2)c2ccccc2O)cc1.[Cl][Cu] |  | agar diffusion | 100 µg/mL | 21 mm
O=C1CC(c2ccccc2)CC2=C1C(c1cccc(C3C4=C(CC(c5ccccc5)CC4=O)OC4=C3C(=O)CC(c3ccccc3)C4)c1)C1=C(CC(c3ccccc3)CC1=O)O2 | ATCC 10231 | agar diffusion | 140 µg/disc | 8 mm
O=[N+]([O-])c1ccc(/C=C/C(=NCCCn2ccnc2)c2ccccc2O)cc1.[Cl][Cu] |  | agar diffusion | 100 µg/mL | 23 mm
O=C1CS/C(=N/N=C/c2c(Cl)cccc2Cl)N1 | ATCC 10231 | agar diffusion | 200 µg | 6 mm
Nc1[nH]c(=O)nc2nc(-c3ccccn3)c(-c3ccccn3)nc12 |  |  | 250 mg/mL | 25 mm
Oc1ccccc1C(/C=C/c1ccccc1)=NCCCn1ccnc1.[Cl][Ni] |  | agar diffusion | 100 µg/mL | 19 mm
N=C1C(=S)N(c2ccc(F)cc2)C(=O)N1c1cc(Cl)cc(Cl)c1 | IMRU-3669 | agar diffusion / agar | 5 mg/mL | 17 mm
Cc1ccc(NC(=O)NCCn2c(-c3ccccc3)nc3ccc([N+](=O)[O-])cc3c2=O)cc1 | ATCC 66027 | broth dilution / agar diffusion | 100 µg/mL | 14 mm
COc1ccc(C2CC(=O)C3=C(C2)OC2=C(C(=O)CC(c4ccc(OC)c(OC)c4)C2)C3c2cccc(C3C4=C(CC(c5ccc(OC)c(OC)c5)CC4=O)OC4=C3C(=O)CC(c3ccc(OC)c(OC)c3)C4)c2)cc1OC | ATCC 10231 | agar diffusion | 20 µg/disc | 7 mm
O=C(NCCn1c(-c2ccccc2)nc2ccc([N+](=O)[O-])cc2c1=O)Nc1ccc(C(F)(F)F)cc1 | ATCC 66027 | broth dilution / agar diffusion | 100 µg/mL | 15 mm
Cc1ccc(-c2cc(/C=N/NC(=O)C34CC5CC(CC(C5)C3)C4)no2)cc1 | IFO 0583 | agar diffusion / agar | 200 µg | ≤10 mm
O=C1C(Cl)C(c2ccc(C(F)(F)F)cc2)N1Nc1nc2ccccc2n2nnnc12 | ATCC 2091 | agar diffusion | 50 µg/mL | 7 mm
CC1(C)CC(=O)C2=C(C1)OC1=C(C(=O)CC(C)(C)C1)C2c1ccc(C2C3=C(CC(C)(C)CC3=O)OC3=C2C(=O)CC(C)(C)C3)cc1 | ATCC 10231 | agar diffusion | 20 µg/disc | 0 mm
CCCCOc1ccc(-c2csc(NS(=O)(=O)C3C(=O)ONN3c3ccc(C)cc3)n2)cc1 | MTCC 227 | agar diffusion | 250 µg/mL | 23 mm
O=C1N/C(=N/N=C/c2c(Cl)cccc2Cl)S/C1=C/c1c(Cl)cccc1Cl | ATCC 10231 | agar diffusion | 200 µg | 16 mm
O=C(NCCn1c(-c2ccccc2)nc2ccc([N+](=O)[O-])cc2c1=O)Nc1ccccc1Cl | ATCC 66027 | broth dilution / agar diffusion | 100 µg/mL | 16 mm
O=C1CCCC2=C1C(c1ccc(C3C4=C(CCCC4=O)OC4=C3C(=O)CCC4)cc1)C1=C(CCCC1=O)O2 | ATCC 10231 | agar diffusion | 140 µg/disc | 8 mm
Cc1ccc(N2NOC(=O)C2S(=O)(=O)Nc2ccc(-n3c(-c4ccccc4[N+](=O)[O-])nc4ccccc4c3=O)cc2)cc1 | MTCC 227 | agar diffusion | 250 µg/mL | 23 mm
C[C@H]1[C@H](O)[C@@H](C)/C=C/C=C/C=C/C=C/C=C/C=C/C=C/[C@H](O[C@@H]2O[C@H](C)[C@@H](O)[C@H](N)[C@@H]2O)C[C@@H]2O[C@](O)(C[C@@H](O)C[C@@H](O)CC[C@H](O)[C@@H](O)C[C@@H](O)CC(=O)O[C@H]1C)C[C@H](O)[C@H]2C(=O)O | ATCC 10231 | agar diffusion | 100 µg | 17 mm
COc1ccccc1/C=N/N=C1\NC(=O)CS1 | ATCC 10231 | agar diffusion | 200 µg | 8 mm
Cc1ccc(N2C(=N)C(=S)N(c3ccc(F)cc3)C2=O)cc1 | IMRU-3669 | agar diffusion / agar | 5 mg/mL | 19.5 mm
Cc1ccc(/C=C/C(=NCCCn2ccnc2)c2ccccc2O)cc1.[Cl][Ni] |  | agar diffusion | 100 µg/mL | 19 mm
N=C1C(=S)N(c2cc(Cl)cc(Cl)c2)C(=O)N1CCCCCCN1C(=N)C(=S)N(c2cc(Cl)cc(Cl)c2)C1=O |  | agar diffusion / agar | 100000 µM | 18 mm
O=C1C(Cl)C(c2ccc(Cl)cc2)N1Nc1nc2ccccc2n2nnnc12 | ATCC 2091 | agar diffusion | 50 µg/mL | 8 mm
Cc1ccc(N2NOC(=O)C2S(=O)(=O)Nc2ccc(-n3c(-c4cccc(Br)c4)nc4ccccc4c3=O)cc2)cc1 | MTCC 227 | agar diffusion | 250 µg/mL | 22 mm
CC1=Cc2c(CO)c(O)c(C)c(O)c2CO1 | ATCC 90028 | agar diffusion | 100 µM | 21 mm
O=c1[nH]c(=S)[nH]c2nc(-c3ccccn3)c(-c3ccccn3)nc12 |  |  | 250 mg/mL | 16 mm
CCCCc1nc(/C=N/NC(=O)C23CC4CC(CC(C4)C2)C3)c(Cl)[nH]1 | IFO 0583 | agar diffusion / agar | 200 µg | 16 mm
O=C1C(Cl)C(c2ccc(O)cc2)N1Nc1nc2ccccc2n2nnnc12 | ATCC 2091 | agar diffusion | 50 µg/mL | 9 mm
CCC(C)CCCCCCCCCCC(=O)N[C@H]1C[C@@H](O)[C@@H](OC)NC(=O)C2[C@@H](O)[C@@H](C)CN2C(=O)C(CO)NC(=O)C([C@H](O)C(OC)c2ccc(O)cc2)NC(=O)NC(=O)[C@@H]2C[C@@H](O)CN2C(=O)[C@H]([C@@H](C)O)NC1=O | IV | agar | 5 mg/mL | 20 mm
N=C1C(=S)N(c2ccc(I)cc2)C(=O)N1CCCCCCN1C(=N)C(=S)N(c2ccc(I)cc2)C1=O |  | agar diffusion / agar | 100000 µM | 21 mm
O=C1CCCC2=C1C(c1cccc(C3C4=C(CCCC4=O)OC4=C3C(=O)CCC4)c1)C1=C(CCCC1=O)O2 | ATCC 10231 | agar diffusion | 140 µg/disc | 7 mm
CCN(CC)c1ccc(Nc2c(Cl)c(Cl)c(C#N)c(Cl)c2C#N)c2nc[nH]c(=O)c12 | ATCC 10231 | agar diffusion | 1000 µg/mL | 0 mm
CCc1cc(N)c(/C=N/NC(=O)N/N=C/c2cc(O)c(CC)cc2N)cc1O.[Cl][Cr+2] |  | agar diffusion / agar | 1 mg/mL | 12 mm
C=C1CC[C@@H](OC(C)=O)[C@]2(C)[C@H](OC(C)=O)[C@H](OC(=O)CC(C)C)[C@H](OC(C)=O)[C@@]3(CO3)[C@H]2[C@@H](OC(C)=O)[C@@]2(O)[C@H](C)C(=O)O[C@H]2[C@H]1Cl |  | agar diffusion / agar | 200 µg/mL | 8 mm
COc1ccc(N2C(=O)N(c3ccc(F)cc3)C(=N)C2=S)cc1 | IMRU-3669 | agar diffusion / agar | 5 mg/mL | 19 mm
CC(C)=CCCC(C)CCO | Clinical isolates | agar diffusion | 1706 µg/disc | <14 mm
N=C1C(=S)N(c2ccc(F)cc2)C(=O)N1c1ccc(Cl)c(C(F)(F)F)c1 | IMRU-3669 | agar diffusion / agar | 5 mg/mL | 17 mm
N=C1C(=S)N(c2ccc(I)cc2)C(=O)N1c1ccc(Oc2ccc(N3C(=N)C(=S)N(c4ccc(I)cc4)C3=O)cc2)cc1 |  | agar diffusion / agar | 100000 µM | 22 mm

Repeating the first 8 entries:

SMILES,strain or isolate,method,tested at,value
NC(=S)N/N=C/c1ccccc1O,,agar diffusion / agar,2 mg/mL,12 mm
Cc1ccc(NC(=O)c2ccc(CN3CCN(C)CC3)cc2)cc1Nc1nccc(-c2cccnc2)n1,,agar diffusion,100 µM,21 mm
O=C1C(Cl)C(c2ccccc2F)N1Nc1nc2ccccc2n2nnnc12,ATCC 2091,agar diffusion,50 µg/mL,8 mm
Clc1nccc2nc(-c3ccccn3)c(-c3ccccn3)nc12,,,500 mg/mL,37 mm
CCN(CC)c1ccc(N)c2nc[nH]c(=O)c12,ATCC 10231,agar diffusion,1000 µg/mL,0 mm
COc1ccc(-c2cc(C3OC(C45CC6CC(CC(C6)C4)C5)=NN3C(C)=O)no2)cc1,IFO 0583,agar diffusion / agar,200 µg,≤10 mm
CC1(C)CC(N2C(=N)C(=S)N(c3ccc(Cl)cc3)C2=O)CC(C)(CN2C(=N)C(=S)N(c3ccc(Cl)cc3)C2=O)C1,,agar diffusion / agar,100000 µM,22 mm
O=C1N/C(=N/N=C/c2csc(-c3ccccc3)n2)S/C1=C/c1ccc(Br)cc1,ATCC 10231,agar diffusion,200 µg,0 mm

An empty or dashed field is not shown. Zone: diameter of growth inhibition.